The values that follow come from patent US20120142623A1, “Compositions And Methods For Predicting Inhibitors Of Protein Targets” (priority 2006, published 2012).

Where two headings read alike, the source gives them in different places.

The subject of assay [1] is chloroquine-sensitive strain 3D7 of P. falciparum. The experiment in a line: P. falciparum growth inhibition in culture, strain 3D7. Format: cell-based, Plasmodium falciparum.
The test system of assay [2] is chloroquine-resistant strain K1 of P. falciparum. The experiment in a line: P. falciparum growth inhibition in culture, strain K1. Format: cell-based, Plasmodium falciparum.

With Nitrotetrazolium, in assay [1] (Table 5, P. falciparum ED50 in 3D7 and K1), the “experimentally determined to work” value is listed as “Y (Y—yes (<=1uM ED50))”. Besides, the EC50 in assay [1] (read-out: ED50 (μM) in 3D7, Table 5) is 0.5 µM; in assay [1] (read-out: ED50 in 3D7, Table 3 section A, mean of at least two measurements), 0.5 µM; in assay [2] (read-out: ED50 (μM) in K1, Table 5) it was under 1 µM; in assay [2] (read-out: ED50 in K1, Table 3 section A, mean of at least two measurements), under 1 µM. Also, the “result of the 16 tested inhibitors in words (binding)” value in assay [1] (summary of Table 5) is given as “very strong binding”.
